Patent US4051253A, “Microbicidal nitrofuryl compounds” (Byk Gulden Lomberg Chemische Fabrik GmbH, priority 1974, dated 1977)

Columns and labels:
[1] = tested on: Serratia marcescens strain HY/a 21; experiment: In vitro mutagenicity test on a solid nutrient medium (spot test); conditions: 10 mg/ml
S. typhimurium G 46 = experiment: Host mediated assay; conditions: 50 mg/kg s.c.

CN(N=O)C(=N)N[N+](=O)[O-]
Mutants, Test [1]: 6.45 × 10^2 colonies/ml | Mutation frequency [1]: 3.3 × 10^-6 | Mutants/ml, Test (S. typhimurium G 46): 5.94 . 10^2 Mutants/ml | Mutation frequency in test animals (S. typhimurium G 46): 5.82 . 10^-7
